Pooled drug test results. Numbers come from NIAID ChemDB, via PubChem.

All rows: growth or infection tests; organism: Mycobacterium tuberculosis

MIC bound comes from a single tested concentration.

smiles,strain or isolate,method,read-out,tested at,value
CC(CNCCNCCc1ccc(F)cc1)c1ccccc1,-,-,MIC,-,50 µM
c1coc(CNCCNCc2ccco2)c1,-,-,MIC,-,25 µM
Cc1cccc(NC(=O)CC(=O)N2N=C(N3c4ccccc4Sc4ccccc43)CC2c2ccccc2)c1,H37Rv,resazurin,inhibition,6.25 µg/mL,-9%
CO[C@H]1/C=C/O[C@@]2(C)Oc3c(C)c(O)c4c(O)c(c(/C=N/N5CCN(C/C=C/c6ccccc6)CC5)c(O)c4c3C2=O)NC(=O)/C(C)=C\C=C\[C@H](C)[C@H](O)[C@@H](C)[C@@H](O)[C@@H](C)[C@H](OC(C)=O)[C@@H]1C,2847 (rifampin-sensitive),-,MBC,-,0.2 µg/mL
Br.CCOc1cc(NCCCOc2ccccc2)c2ncccc2c1,H37Rv,-,MIC,-,>100 µg/mL
c1ccc(CCCCNCCNCC(c2ccccc2)c2ccccc2)cc1,-,-,MIC,-,6.25 µM
COc1ccc(/C=C/C(=O)c2ccc(Br)cc2O)cc1,H37Rv,-,EC50,-,>12.5 µg/mL
COC(=O)Nc1cn2ccc(Sc3ccccc3)cc2n1,H37Rv,BACTEC,inhibition,12.5 µg/mL,0%
COc1ccc(OC)c(CCNCCNC/C=C(\C)CCC=C(C)C)c1,-,-,MIC,-,50 µM
O=C(O)c1ccccc1NCCO,H37Rv,-,MIC,-,>100 µg/mL
NC(=S)N/N=C/c1ccc2oc3ccccc3c2c1,CS-R,-,MIC,-,≤0.05 µg/mL
ClC(=Nc1cccc(Cl)c1)C(Cl)=Nc1cccc(Cl)c1,H37Rv,-,MIC,-,>100 µg/mL
O=C(Nc1cnc2c(Cl)cc(NC(=O)OCc3ccccc3)nc2n1)OCc1ccccc1,H37Rv,-,EC50,-,>12.5 µg/mL
CCN(CC)c1ccc(Cc2ccc(N(CC)CC)cc2)cc1,H37Rv,-,MIC,-,>100 µg/mL
CCOC(=O)Nc1cc(Nc2ccc(Cl)cc2)c2nc(-c3ccc(Cl)cc3)c(-c3ccc(Cl)cc3)nc2n1,H37Rv,-,EC50,-,>12.5 µg/mL
CC1(C)[C@H]2CC[C@@H](CNCCNCCN3CCOCC3)[C@@H]1C2,-,-,MIC,-,50 µM
Cn1c(=O)nc2n(-c3cc(Cl)ccc3Cl)c3ccccc3nc-2c1=O,H37Rv,BACTEC,inhibition,12.5 µg/mL,45%
C[C@@H]1[C@@H](NCCNCC(c2ccccc2)c2ccccc2)C[C@H]2C[C@@H]1C2(C)C,-,-,MIC,-,3.13 µM
Nc1ncccc1/C=C/C(=O)c1cc(Cl)ccc1O,-,-,EC50,-,>12.5 µg/mL
Cc1cc(C)c(CCl)c(C)c1CCl,H37Rv,-,MIC,-,>100 µg/mL
CCOC(=O)Nc1nc(NC(=O)OCC)c([N+](=O)[O-])c(Cl)c1[N+](=O)[O-],H37Rv,-,EC50,-,>12.5 µg/mL
Fc1ccc(CCNCCNCC2CCCO2)cc1,-,-,MIC,-,50 µM
CCOC(=O)C1C(NC(N)=O)N(Cc2ccccc2)C(=O)N1Cc1ccccc1,H37Rv,BACTEC,inhibition,12.5 µg/mL,0%
COc1ccc(/C=C/C(=O)c2ccc(OC)cc2O)cc1,H37Rv,-,EC50,-,>12.5 µg/mL
CO[C@H]1/C=C/O[C@@]2(C)Oc3c(C)c(O)c4c(=O)c(c5oc6cc(N7CCN(C(C)C)CC7)cc(=O)c6nc5c4c3=C2O)NC(=O)/C(C)=C\C=C\[C@H](C)[C@H](O)[C@@H](C)[C@@H](O)[C@@H](C)[C@H](OC(C)=O)[C@@H]1C,2227 (rifampin-resistant),-,MBC,-,0.2 µg/mL
Cl.NCCOc1ccccc1,H37Rv,-,MIC,-,800 µg/mL
CCCCCCCCCCCNCCNC(C)CC(C)C,-,-,MIC,-,25 µM
O=c1c2ccccc2[se]n1-c1cccnc1,H37Rv,-,MIC,-,12.5 µg/mL
CCCCCCCCCCCCCc1ccccn1,H37Rv,-,MIC,-,>100 µg/mL
COc1ccc(C2CC(=O)c3ccc(OC)cc3O2)cc1,H37Rv,-,inhibition,12.5 µg/mL,0%
C[C@H]1COc2c(N3CCN(C)CC3)c(F)cc3c(=O)c(C(=O)O)cn1c23,ATCC 35823,-,MIC,-,0.25 µg/mL
S=c1nn[nH]n1-c1cc(Cl)ccc1Cl,H37Rv,-,MIC,-,50 µg/mL
NCC[C@H](O)C(=O)N[C@@H]1C[C@H](N)[C@@H](O[C@H]2O[C@H](CN)[C@@H](O)[C@H](O)[C@H]2O)[C@H](O)[C@H]1O[C@H]1O[C@H](CO)[C@@H](O)[C@H](N)[C@H]1O,MDR3,broth dilution / resazurin,MIC,-,8 µg/mL
CN[C@@H]1[C@H](O[C@H]2[C@H](O[C@H]3[C@H](O)[C@@H](O)[C@H](N=C(N)N)[C@@H](O)[C@@H]3N=C(N)N)O[C@@H](C)[C@]2(O)C=O)O[C@@H](CO)[C@H](O)[C@H]1O,TN3806 (W1),-,MIC,-,>2 µg/mL
CCOC(=O)Nc1cc(N(C)CC(=O)c2ccc(O)cc2)c([N+](=O)[O-])c(N)n1,H37Rv,-,EC50,-,>12.5 µg/mL
CC(=O)c1ccc2sc3ccc(C(C)=O)cc3c2c1,H37Rv,-,MIC,-,>100 µg/mL
CCOC(=O)Nc1cc2ncc(CN(C)c3ccc(C(=O)OC)cc3)nc2c(N)n1,H37Rv,-,inhibition,12.5 µg/mL,0%
CCSC(C[C@@H](O)[C@H](O)[C@H](O)CO)SCC,H37Rv,-,MIC bound,-,>6.25 µg/mL
Cc1cc(O)ccc1C=O,H37Rv,-,MIC,-,>100 µg/mL
O=C(/C=C/c1ccccc1)NC1C=Nc2ccccc2NC1=O,H37Rv,BACTEC,MIC bound,-,>12.5 µg/mL
COc1ccc(CNCCNC[C@@H]2CC[C@H]3C[C@@H]2C3(C)C)cc1OC,-,-,MIC,-,50 µM
CCCCCCCCC(=O)N1c2ccccc2Sc2ccccc21,H37Rv,BACTEC,inhibition,12.5 µg/mL,-9%
Cl.NCCOC(c1ccccc1)c1ccccc1,H37Rv,-,MIC,-,100 µg/mL
FC(F)(F)c1cccc(-c2nc3nc(Cl)c(Cl)nc3[nH]2)c1,H37Rv,resazurin,MIC bound,-,>6.25 µg/mL
CCCCCCCCCCCNCCNCCCO,-,-,MIC,-,50 µM
OCc1ccccc1Sc1ccccc1CNCCNCCC1=CCCCC1,-,-,MIC,-,12.5 µM
Cc1cc(O)ccc1NCc1ccccc1.Cl,H37Rv,-,MIC,-,50 µg/mL
CC1(C)CCC[C@]2(C)[C@H]3C=C4C=C(O)C(=O)C=C4O[C@@]3(C)CC[C@@H]12,INH-r,-,MIC,-,12.5 µg/mL
OCCCOc1ccccc1,H37Rv,-,MIC,-,2000 µg/mL
c1ccc(-c2cc[n+]3c4c2ccc2c(-c5ccccc5)cc[n+](c24)CC3)cc1,H37Rv,BACTEC,MIC bound,-,>12.5 µg/mL
CC1CN(c2cc3c(cc2F)c(=O)c(C(=O)O)cn3-c2ccc(F)cc2F)CCN1,ATCC 35828,-,MIC,-,1 µg/mL
COc1cc(OC)c2c(c1)OC(c1cc(OC)c(OC)c(OC)c1)C(Br)(Br)C2=O,H37Rv,-,inhibition,12.5 µg/mL,16%
Nc1ccc(C2SCC(=O)N2NS(=O)(=O)c2cccc(C(=O)O)c2)cc1,H37Rv,BACTEC,inhibition,12.5 µg/mL,1%
CCSCC(=O)Nc1cc(Cl)c(C)cc1O,H37Rv,-,MIC,-,>100 µg/mL
CCCCC(CC)CN1CN(CC(CC)CCCC)CC(C)(NCCNCCC(c2ccccc2)c2ccccc2)C1,-,-,MIC,-,12.5 µM
CC[C@H]1OC(=O)[C@H](C)[C@@H](O[C@H]2C[C@@](C)(OC)[C@@H](O)[C@H](C)O2)[C@H](C)[C@@H](O[C@@H]2O[C@H](C)C[C@H](N(C)C)[C@H]2O)[C@](C)(O)C[C@@H](C)C(=O)[C@H](C)[C@@H](O)[C@]1(C)O,ATCC 35823,-,MBC,-,>8 µg/mL
Cc1ccc(S(=O)(=O)N/N=C(\CC(=O)c2c(C)n([O-])c3ccccc3[n+]2=O)C(=O)Nc2ccccc2C)cc1,H37Rv,BACTEC,MIC bound,-,>12.5 µg/mL
NCCc1ccc(O)cc1,H37Rv,-,MIC,-,1600 µg/mL
COc1ccc(OC)c(CCNCCNCCC2=CCCCC2)c1,-,-,MIC,-,12.5 µM
CCOC(=O)Cc1ccc2[nH]c(C(=O)OCC)cc(=O)c2c1,H37Rv,BACTEC,MIC bound,-,>12.5 µg/mL
CN(C)c1ccc(-c2ccc3ccc4ccccc4c3n2)cc1,H37Rv,-,MIC,-,>100 µg/mL
CCOC(=O)Nc1cc2c(c(N)n1)N=C(c1cc(OC)cc(OC)c1)C(C)O2,H37Rv,-,EC50,-,<12.5 µg/mL
COc1ccc(C2=NOC(=O)C2)cc1,H37Rv,-,MIC,-,>100 µg/mL
COc1ccc(CCNCCNCCc2ccc(F)cc2)cc1,-,-,MIC,-,12.5 µM
CC1COc2c(N3CCN(C)CC3)c(F)cc3c(=O)c(C(=O)O)cn1c23,DRUG-SUS,-,MBC90,-,1 µg/mL
CC(=O)c1cc2cc3c4c(c2oc1=O)CCCN4CCC3,H37Rv,BACTEC,inhibition,12.5 µg/mL,81%
COc1cc(OC)c2c(c1)OC(c1ccc(O)cc1)CC2=O,H37Rv,-,inhibition,12.5 µg/mL,0%
C[C@H](O)CNCCNCCC(c1ccccc1)c1ccccc1,-,-,MIC,-,25 µM
CCC1(C)NN=c2s/c(=C\c3ccc(OC)cc3)c(=O)n2N1,H37Rv,BACTEC,MIC bound,-,>12.5 µg/mL
Cc1cc(O)c(C(=O)O)c(O)c1,H37Rv,-,MIC,-,>100 µg/mL
Cc1cc2c(C)c3cc(C)c(N)cc3nc2cc1N,H37Rv,BACTEC,inhibition,12.5 µg/mL,100%
CN(C)c1ccc(N=Nc2ccc(C(=O)[O-])cc2)cc1.[Na+],H37Rv,-,MIC,-,25 µg/mL
COc1ccc2c(c1)[n+]([O-])c(C(N)=O)c(N)[n+]2[O-],CS-R,-,MIC,-,6.3 µg/mL
CC(=O)N1CCCCC1,H37Rv,-,MIC,-,>100 µg/mL

Conditions beyond the fields shown may differ between rows. Inhibition is in % at the dose shown (toxicity tests: loss of growth or viability). MIC50, MIC90 and the like: level of inhibition, or share of isolates inhibited. An empty or dashed field is not shown. ECn: concentration that inhibits the pathogen or its effect by n%.